For at least one entry, the source does not settle the construct or the ends of the probe. At least one verdict was read from the data and is not stated in words by the source.
Biological target: SaeR, phosphorylated (6His-SaeR) (UniProt Q7A1J1)
Experiment: EMSA
Details: recombinant protein, protein details: 6His (pET28a, BamHI/XhoI), label: biotin (EMSA Probe Biotin Labeling Kit), probe letters rebuilt from the primers and the genome

Protein sequences, listed by entry. Tags and fused reporters are not part of them. Lines headed by an entry give the natural chain unless they say otherwise; changes in a name come on top.
UniProt Q7A1J1: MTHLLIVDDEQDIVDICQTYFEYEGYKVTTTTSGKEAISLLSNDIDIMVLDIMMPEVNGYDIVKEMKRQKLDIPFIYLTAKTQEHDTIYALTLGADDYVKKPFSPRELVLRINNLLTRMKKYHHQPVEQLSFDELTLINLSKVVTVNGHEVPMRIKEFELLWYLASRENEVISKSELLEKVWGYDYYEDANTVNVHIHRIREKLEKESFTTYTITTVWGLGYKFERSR

Measured: binding result

GCATTTCAATTTCGAGGGTTAGTCAAAGTTGAATAAATTCTTTATGAAACAAGGAAAAGACATAGCTAATTCTATTGATTAATTTCTTTAAAACTAATGATTTGTTTGATTTAAAAATGTAATCGATTGCAATATAAAAATACAAATATCTTAGAATTAAATCAATTAATTAACTATTAAATAAAAATTAACTATATATTAACTACTGTAAATTAATAAATAGAAATAGAGAAAAAGGGTATTAATTATGTTTGGAATTTCGTCGGGAATAAATTTTGCCATTACATAGAAATATCTAATA (double strand) [hla promoter fragment (biotin)]
binds: SaeR phosphorylated in mixture with SaeSC and ATP | ibuprofen (no effect on shift) | no drug

From article PMC10375895, “Repurposed Fenoprofen Targeting SaeR Attenuates Staphylococcus aureus Virulence in Implant-Associated Infections” (ACS Central Science, 2023)
